Compound potency records, mixed from different reports. Data source: NIAID ChemDB in PubChem.

Shared fields: growth or infection tests; agent: Candida albicans; endpoint: MIC

Conditions beyond the fields shown may differ between rows. Blank or dashed fields: not listed here.

smiles | strain | method | conditions | result
CCOc1cc2c(cc1F)n([O-])c(C)c(S(=O)(=O)c1ccccc1)[n+]2=O | Clinical isolate 3 | - | - | 15.6 µg/mL
Cc1ccc(C(Cn2ccnc2)OCc2cccc3ccccc23)cc1 | 5M | - | - | >128 µg/mL
CCCCCOc1ccc(-c2ccc(-c3ccc(C(=O)N[C@H]4CCCNC(=O)[C@@H]5C[C@H](NC)CN5C(=O)[C@H]([C@@H](C)O)NC(=O)[C@H](CCc5ccc(O)cc5)NC(=O)[C@@H]5C[C@@H](O)CN5C(=O)[C@H]([C@@H](C)O)NC4=O)cc3)cc2)cc1 | ATCC CCH442 | - | - | 0.2 µg/mL
c1ccc(C(Cn2ccnc2)OCc2cccc3ccccc23)cc1 | 3M | - | - | 128 µg/mL
O[C@](Cn1cncn1)(Cn1cnc(/C=C/c2ccc(OCC(F)(F)C(F)F)cc2)n1)c1ccc(F)cc1F | Isolate 08-37 | - | - | 2 µg/mL
CCC(C)CC(C)CCCCCCCCC(=O)N[C@H]1C[C@@H](O)[C@H](NCCN)NC(=O)[C@@H]2[C@@H](O)CCN2C(=O)[C@H]([C@H](O)CCN)NC(=O)[C@H]([C@H](O)[C@@H](O)c2ccc(O)cc2)NC(=O)[C@@H]2C[C@@H](O)CN2C(=O)[C@H]([C@@H](C)O)NC1=O | C-43 | broth dilution | - | 0.06 µg/mL
CNc1ccc(C(=O)CC(O)CCC(C)C2OC(=O)CC(O)CC(=O)CC(O)CC(O)CC(O)CC(O)CC3(O)CC(O)C(C(=O)N4CCN(C)CC4)C(CC(O[C@@H]4O[C@H](C)[C@@H](O)[C@H](NC(=O)CN(C)C)[C@@H]4O)/C=C/C=C/C=C/C=C\C=C/C=C/C=C/C2C)O3)cc1 | 200 | - | - | 0.06 µg/mL
CC(C)N=C(N)c1ccc2nc(-c3ccc4c(c3)Cc3cc(-c5nc6ccc(C(N)=NC(C)C)cc6[nH]5)ccc3-4)[nH]c2c1 | Isolate CA2256 fluconazole-resistant | - | - | 1.56 µg/mL
CCCCCOc1ccc(-c2ccc(-c3ccc(C(=O)N[C@H]4CCCNC(=O)C5C[C@H](NC(=O)OC)CN5C(=O)C(C(C)O)NC(=O)C(CCc5ccc(O)cc5)NC(=O)C5C[C@@H](O)CN5C(=O)C(C(C)O)NC4=O)cc3)cc2)cc1 | ATCC 62376 | - | - | 0.39 µg/mL
C[C@@H](n1cnc2cc(NC(=O)C(F)(F)F)c(F)cc2c1=O)[C@](O)(Cn1cncn1)c1ccc(F)cc1F | 76 strains | - | - | 5 µg/mL
CC(/C=C/C=C(\C)C(O)C(C)C(=O)O[C@H]1C[C@@H](C)C=C2C=C[C@]3(C)O[C@@H](O)CC(=O)[C@]3(C)[C@H]21)=C\C=C\C(=O)O | 579A | - | - | 0.78 µg/mL
Cc1ccc(/C=C2\COc3ccccc3C2=O)cc1 | - | - | - | 12.5 µg/mL
CCCCCOc1ccc(-c2ccc(-c3ccc(C(=O)N[C@H]4CCCNC(=O)[C@@H]5C[C@H](NC(C)=O)CN5C(=O)[C@H]([C@@H](C)O)NC(=O)[C@H](CCc5ccc(O)cc5)NC(=O)[C@@H]5C[C@@H](O)CN5C(=O)[C@H]([C@@H](C)O)NC4=O)cc3)cc2)cc1 | ATCC CCH442 | - | - | 0.2 µg/mL
C[C@@H](c1ncncc1F)[C@](O)(Cn1cncn1)c1ccc(F)cc1F | 10 isolates | broth dilution | pH 4 | 2 µg/mL
Cc1ccc(C(Cn2ccnc2)OCc2ccc(-c3ccccc3)cc2)cc1 | CA2 | - | - | 64 µg/mL
COc1ccc2c(c1)C(=O)/C(=C/c1ccc3ccccc3c1)CO2 | - | - | - | 12.5 µg/mL
CCC(C)CC(C)CCCCCCCCC(=O)N[C@H]1C[C@@H](O)[C@H](NCCN)NC(=O)[C@@H]2[C@@H](O)CCN2C(=O)[C@H]([C@H](O)CCN)NC(=O)[C@H]([C@H](O)[C@@H](O)c2ccc(O)cc2)NC(=O)[C@@H]2C[C@@H](O)CN2C(=O)[C@H]([C@@H](C)O)NC1=O | 15 isolates | broth dilution | pH 4 | 0.06 µg/mL
O=[n+]1c(Sc2ccccc2)c(CBr)n([O-])c2ccccc21 | Clinical isolate 9 | - | - | 31.25 µg/mL
Clc1ccc(C(Cn2ccnc2)OCc2ccc(-c3ccccc3)cc2)cc1 | 3M | - | - | 128 µg/mL
O=C(c1ccccc1)c1oc2ccccc2c1Cn1ccnc1 | NRRL Y-27077 | - | - | 25 µg/mL
CCCCCOc1ccc(-c2ccc(-c3ccc(C(=O)N[C@H]4CCCNC(=O)C5C[C@H](N)CN5C(=O)C(C(C)O)NC(=O)C(Cc5ccccc5)NC(=O)C5C[C@@H](O)CN5C(=O)C(C(C)O)NC4=O)cc3)cc2)cc1 | ATCC 62376 | - | - | 1.56 µg/mL
C[C@@H](n1cnc2c(Br)cc(Br)cc2c1=O)[C@](O)(Cn1cncn1)c1ccc(F)cc1F | 76 strains | - | - | 5 µg/mL
C[C@H]1[C@H](O)[C@@H](C)/C=C/C=C/C=C/C=C/C=C/C=C/C=C/[C@H](O[C@@H]2O[C@H](C)[C@@H](O)[C@H](N)[C@@H]2O)C[C@@H]2O[C@](O)(C[C@@H](O)C[C@@H](O)CC[C@H](O)[C@@H](O)C[C@@H](O)CC(=O)O[C@H]1C)C[C@H](O)[C@H]2C(=O)O | ATCC64545 | - | - | 0.25 µg/mL
C[C@@H](n1cnc2cc(S(C)(=O)=O)ccc2c1=O)[C@](O)(Cn1cncn1)c1ccc(F)cc1F | 60 strains | - | - | 1.25 µg/mL
Cc1ccc(C(Cn2ccnc2)OC/C=C/c2ccccc2)cc1 | CA12 | - | - | >128 µg/mL
Clc1ccccc1C(c1ccccc1)(c1ccccc1)n1ccnc1 | 10 isolates | broth dilution | pH 6 | 0.03 µg/mL
C[C@@H](n1cnc2cccc(Cl)c2c1=O)[C@](O)(Cn1cncn1)c1ccc(F)cc1F | 406 strains | - | - | 0.15 µg/mL
Cc1c(Sc2ccccc2)[n+](=O)c2cc(Cl)ccc2n1[O-] | Clinical isolate 21 | - | - | 31.25 µg/mL
CNc1ccc(C(=O)CC(O)CCC(C)C2OC(=O)CC(O)CC(=O)CC(O)CC(O)CC(O)CC(O)CC3(O)CC(O)C(C(=O)NCCN(C)C)C(CC(O[C@@H]4O[C@H](C)[C@@H](O)[C@H](NC(=O)CN5CCN(CCO)CC5)[C@@H]4O)/C=C/C=C/C=C/C=C\C=C/C=C/C=C/C2C)O3)cc1 | 73 | - | - | 0.03 µg/mL
COc1ccc2c(c1)C(=O)/C(=C/c1ccccc1OC)CO2 | - | - | - | 6 µg/mL
Cc1c(Cl)[n+](=O)c2cc(Cl)ccc2n1[O-] | Clinical isolate 10 | - | - | 7.8 µg/mL
Clc1ccc(C(Cn2ccnc2)OCc2ccc(-c3ccccc3)cc2)c(Cl)c1 | PR1 | - | - | >128 µg/mL
Clc1ccc(COC(Cn2ccnc2)c2ccc(Cl)cc2Cl)c(Cl)c1 | 10 isolates | broth dilution | pH 5 | 0.125 µg/mL
CCCCCC(CCCCC)c1ccc(N2CCN(c3ccc(C(=O)N[C@H]4CCCNC(=O)C5C[C@H](N)CN5C(=O)C(C(C)O)NC(=O)C(CCc5ccc(O)cc5)NC(=O)C5C[C@@H](O)CN5C(=O)C(C(C)O)NC4=O)cc3)CC2)cc1 | ATCC CCH442 | - | - | 0.78 µg/mL
Cc1ccc2oc(/C(=N/O)c3ccc(Cl)cc3)c(C)c2c1 | Clinical isolate | - | - | 12.5 µg/mL
Clc1ccc(C(Cn2ccnc2)OCc2cccc3ccccc23)c(Cl)c1 | CA7 | - | - | 4 µg/mL
CNc1ccc(C(=O)CC(O)CCC(C)C2OC(=O)CC(O)CC(=O)CC(O)CC(O)CC(O)CC(O)CC3(O)CC(O)C(C(=O)N4CCN(C)CC4)C(CC(O[C@@H]4O[C@H](C)[C@@H](O)[C@H](NC(=O)CN5CCN(CCO)CC5)[C@@H]4O)/C=C/C=C/C=C/C=C\C=C/C=C/C=C/C2C)O3)cc1 | 200 | - | - | 0.06 µg/mL
O=C1/C(=C/c2ccc(F)cc2)CCc2ccccc21 | - | - | - | 50 µg/mL
COc1cc2ncn([C@H](C)[C@](O)(Cn3cncn3)c3ccc(F)cc3F)c(=O)c2cc1OC | 76 strains | - | - | 5 µg/mL
CNc1ccc(C(=O)CC(O)CCC(C)C2OC(=O)CC(O)CC(=O)CC(O)CC(O)CC(O)CC(O)CC3(O)CC(O)C(C(=O)N4CCN(CCO)CC4)C(CC(O[C@@H]4O[C@H](C)[C@@H](O)[C@H](NC(=O)CN5CCN(CCO)CC5)[C@@H]4O)/C=C/C=C/C=C/C=C\C=C/C=C/C=C/C2C)O3)cc1 | 200 | - | - | 0.12 µg/mL
Cc1ccc2oc(/C(=N/O)c3ccccc3)c(C)c2c1 | Clinical isolate | - | - | 12.5 µg/mL
Cc1c(O)cccc1C(=O)N[C@@H](CSc1ccccc1)[C@H](O)CN1C[C@H]2CCCC[C@H]2C[C@H]1C(=O)NC(C)(C)C | I181A | - | - | >64 µg/mL
CCC(C)n1ncn(-c2ccc(N3CCN(c4ccc(OC[C@H]5CO[C@](Cn6cncn6)(c6ccc(Cl)cc6Cl)O5)cc4)CC3)cc2)c1=O | SGY-243 | - | - | 0.004 µg/mL
CCCCCCCCOc1ccc(N2CCN(c3ccc(C(=O)N[C@H]4CCCNC(=O)C5C[C@H](N)CN5C(=O)C(C(C)O)NC(=O)C(Cc5ccc(C)cc5)NC(=O)C5CCCN5C(=O)C(C(C)O)NC4=O)cc3)CC2)cc1 | ATCC CCH442 | - | - | 6.25 µg/mL
Cc1c(C(=O)c2ccccc2)oc2ccc(Cl)cc12 | NRRL Y-27077 | - | - | 25 µg/mL
COc1cccc2c(=O)n([C@H](C)[C@](O)(Cn3cncn3)c3ccc(F)cc3F)cnc12 | 406 strains | - | - | 1.25 µg/mL
CC(C)S(=O)(=O)N1CCN(c2cnn(-c3cc(F)cc(F)c3)c(=O)c2OC2CCC(F)C2)CC1 | C693 | broth dilution | - | 0.06 µg/mL

A second listing of 4 rows from above:

O=[n+]1c(Sc2ccccc2)c(CBr)n([O-])c2ccccc21 ; strain: Clinical isolate 9 ; result: 31.25 µg/mL
Cc1ccc(/C=C2\COc3ccccc3C2=O)cc1 ; result: 12.5 µg/mL
COc1ccc2c(c1)C(=O)/C(=C/c1ccc3ccccc3c1)CO2 ; result: 12.5 µg/mL
Cc1ccc(C(Cn2ccnc2)OCc2cccc3ccccc23)cc1 ; strain: 5M ; result: >128 µg/mL